From patent publication US11737461B2, “Citrate perhydrates and uses thereof” (BIOREM ENGINEERING SA, priority 2018, dated 2023) come the findings set out here.

The assay has as its system Staphylococcus aureus MRSA.

By MIC is commonly meant the smallest concentration in the dilution series that meets the test's criterion for growth inhibition.

For the substance “anhydrous disodium citrate monoperhydrate [disodium citrate perhydrate]”, the “MIC” value was 0.12 mM, the MIC % was 0.003% and the MIC value amounted to 30 µg/mL. Under “vs hydrogen peroxide alone”, the “growth-inhibiting efficacy (MIC), times greater than that of hydrogen peroxide alone” value was 230 times. The “growth-inhibiting efficacy (MIC), times greater than sodium citrate” value (vs sodium citrate) is 103 times.
Take “Povidone-iodine [PVP-I (Povidone-iodine)]”: the “MIC” value is 17.13 mM, the MIC % came to 0.625% and the MIC value stood at 6250 µg/mL.
